In paper PMC2910439, “Imperatoxin A, a Cell-Penetrating Peptide from Scorpion Venom, as a Probe of Ca^2+-Release Channels/Ryanodine Receptors” (Pharmaceuticals, 2010):
Starred links: 1 amine or outer side, 2 acyl side, 3 side chain; linkers in the order of their positions; H or OH if unused. Positions of bridges follow the written chain, without caps; N, C: chain ends. Non-standard residues stand in square brackets, D forms with d. Residues, ends and D or L forms follow the SMILES beside them. *: point of attachment. X1 = CC1CC(C)(C)Nc2c1cc1c(c2S(=O)(=O)O)Oc2c(S(=O)(=O)O)c3c(cc2=C1c1c(Cl)c(SCC(=O)*)c(Cl)c(Cl)c1C(=O)O)C(C)CC(C)(C)N=3; X2 = N=C(CCCSC1CC(=O)N(CCCCCN[*:1])C1=O)NCC(=O)[*:2]

Test system: intact mouse ventricular myocytes
Format: cell-based
Conditions: confocal; for distribution of fluorescence in perfused cells: 1 μM perfusion
Protocol: To visualize the cell-penetrating properties of Alexa-IpTxa in intact cells, ventricular cardiomyocytes were enzymatically isolated and incubated with 5 μM Alexa-IpTxa and Alexa 488-Wheat Germ Agglutinin (10 μg/mL) for 30 min at room temperature (see Experimental Methods). The distribution of Alexa-546-IpTxa (red fluorescence) and WAG-Alexa-488 (green fluorescence) were monitored in living, unfixed cardiac myocytes.
We next sought to establish a time-course for the translocation of Alexa-IpTxa across the plasma membrane of intact cardiomyocytes. […] Clear intracellular localization of fluorescence is seen only with Alexa-IpTxa, as early as 10 min after incubation (panel D), but more intensely after 20 min incubation (panel F). In order to refine the time-course of Alexa-IpTxa penetration into cardiomyocytes, we continuously monitored the evolution of fluorescence in 3 regions of interest (ROI) corresponding to the plasma membrane and adjacent cytosol (ROI-1), the bulk cytosol (ROI-2), and the nucleus (ROI-3). A fourth ROI (not shown) was defined to monitor changes in fluorescence of the bath solution. Animations of IpTxa translocation into cells are available online as supplementary data (URL: http://www.mdpi.com/1424-8247/3/4/1093/S1).
Isolated cardiac myocytes were incubated with Alexa-546-IpTxa (5 μM) with or without WGA-Alexa 488 (10 μg/mL) for 30 min in the dark. Images were acquired with a BioRad MR-1 confocal microscope coupled to a Nikon Disphot microscope and an X60 oil immersion objective using the Lasersharp 2000 software. Confocal images are 0.25 μm sections. All experiments were performed at room temperature.
Ventricular myocytes were imaged with a Zeiss META 5 confocal microscope equipped with laser scanning. Three regions of interest were delineated corresponding to the plasma membrane (ROI-1), […]. Changes in fluorescence intensity in these regions were monitored and analyzed. Alexa-546-IpTxa fluorescence was excited with the 488 nm line of an argon laser, and emitted light was filtered by a LP 585 filter. […]

SMILES	distribution of fluorescence in perfused cells	intracellular localization of fluorescence (5 μM, 30 min at room temperature, living unfixed myocytes, co-stained with Alexa 488-WGA 10 μg/mL)
CC(C)C[C@@H]1NC(=O)[C@H](Cc2c[nH]cn2)NC(=O)[C@@H]2CCCN2C(=O)[C@H](CC(C)C)NC(=O)[C@@H](NC(=O)[C@H](CC(=O)O)NC(=O)CNC(=N)CCCSC2CC(=O)N(CCCCCNC(=O)CSc3c(Cl)c(Cl)c(C(=O)O)c(C4=c5cc6c(c(S(=O)(=O)O)c5Oc5c4cc4c(c5S(=O)(=O)O)NC(C)(C)CC4C)=NC(C)(C)CC6C)c3Cl)C2=O)CSSC[C@@H]2NC(=O)[C@@H]3CSSC[C@@H](C(=O)N[C@@H](CCCNC(=N)N)C(=O)O)NC(=O)[C@H](CCCNC(=N)N)NC(=O)[C@H](CCCCN)NC(=O)[C@H](CCC(=O)O)NC(=O)[C@H](C)NC(=O)[C@H](CC(N)=O)NC(=O)[C@H]([C@@H](C)O)NC(=O)CNC(=O)[C@H](CCCNC(=N)N)NC(=O)[C@H](CCCNC(=N)N)NC(=O)[C@H](CCCCN)NC(=O)[C@H](CSSC[C@H](NC(=O)[C@H](CCCNC(=N)N)NC(=O)[C@H](CCCCN)NC1=O)C(=O)N[C@@H](CCCCN)C(=O)N[C@@H](C)C(=O)N[C@@H](CC(=O)O)C(=O)N[C@@H](CC(N)=O)C(=O)N[C@@H](CC(=O)O)C(=O)N3)NC(=O)[C@H](CCCCN)NC(=O)[C@H](CCCCN)NC(=O)CNC2=O (stereo partly drawn) [Alexa-IpTxa] (X1-[X2]DCLPHLKRCKADNDCCGKKCKRRGTNAEKRCR-OH; disulfide 3-17, 10-21, 16-32; C-terminus assumed)	fluorescence intensity was greater in all cellular compartments than that observed in the bath	localizes in the sarcoplasm of the cell
CC1CC(C)(C)Nc2c1cc1c(c2S(=O)(=O)O)Oc2c(S(=O)(=O)O)c3c(cc2=C1c1c(Cl)c(SCC(=O)NCCCCCN2C(=O)C=CC2=O)c(Cl)c(Cl)c1C(=O)O)C(C)CC(C)(C)N=3 (stereo not drawn) [Alexa-maleimide, Alexa-Fluor-546-C5-maleimide, reference compound]	only labeling of the membrane	–
